Read-outs that look alike come from different tables or passages of the source.
Key:
[1] = target: T1, TMPRSS2 (Homo sapiens, UniProt O15393)
[2] = target: T1, TMPRSS2; remark: listed apart in the source

Amino acid sequences for entries named in this document (tags omitted).
UniProt O15393, whole entry: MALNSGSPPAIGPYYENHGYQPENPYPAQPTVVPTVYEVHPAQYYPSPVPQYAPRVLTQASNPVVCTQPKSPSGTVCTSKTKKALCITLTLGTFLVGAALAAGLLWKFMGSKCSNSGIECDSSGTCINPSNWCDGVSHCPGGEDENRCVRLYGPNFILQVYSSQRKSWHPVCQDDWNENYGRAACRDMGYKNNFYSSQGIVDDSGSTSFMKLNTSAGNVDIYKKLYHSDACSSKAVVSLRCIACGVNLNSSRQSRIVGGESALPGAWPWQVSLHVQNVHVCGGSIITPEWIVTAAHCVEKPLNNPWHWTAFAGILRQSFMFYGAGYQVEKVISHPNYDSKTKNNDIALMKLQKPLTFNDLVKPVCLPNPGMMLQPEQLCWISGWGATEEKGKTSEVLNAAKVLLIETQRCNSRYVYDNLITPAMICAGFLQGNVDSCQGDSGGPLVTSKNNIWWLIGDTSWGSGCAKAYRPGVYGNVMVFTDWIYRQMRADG

## CC(=O)N[C@H](CCCNC(=N)N)C(=O)N[C@@H](CC1CCC1)C(=O)NC(CCCNC(=N)N)C(=O)c1nc2ccccc2s1 (stereo partly drawn)
[1]; inhibitor 0.0167 nM, 0 min in plasma
  TMPRSS2 activity, Mean (0 nM = 100): 107.855
[1]; inhibitor 0.0167 nM, 30 min in plasma
  TMPRSS2 activity, Mean (0 nM = 100): 131.865
[1]; inhibitor 0.0167 nM, 60 min in plasma
  TMPRSS2 activity, Mean (0 nM = 100): 100.212
[1]; inhibitor 0.0167 nM, 120 min in plasma
  TMPRSS2 activity, Mean (0 nM = 100): 88.1855
[1]; inhibitor 0.0167 nM, 24 h in plasma
  TMPRSS2 activity, Mean (0 nM = 100): 94.7157
[1]; inhibitor 0.0167 nM, 10 d in plasma
  TMPRSS2 activity, Mean (0 nM = 100): 98.6379
[1]; inhibitor 0.167 nM, 0 min in plasma
  TMPRSS2 activity, Mean (0 nM = 100): 110.607
[1]; inhibitor 0.167 nM, 30 min in plasma
  TMPRSS2 activity, Mean (0 nM = 100): 112.031
[1]; inhibitor 0.167 nM, 60 min in plasma
  TMPRSS2 activity, Mean (0 nM = 100): 97.9191
[1]; inhibitor 0.167 nM, 120 min in plasma
  TMPRSS2 activity, Mean (0 nM = 100): 84.3747
[1]; inhibitor 0.167 nM, 24 h in plasma
  TMPRSS2 activity, Mean (0 nM = 100): 93.6852
[1]; inhibitor 0.167 nM, 10 d in plasma
  TMPRSS2 activity, Mean (0 nM = 100): 98.6274
[1]; inhibitor 1.665 nM, 0 min in plasma
  TMPRSS2 activity, Mean (0 nM = 100): 106.886
[1]; inhibitor 1.665 nM, 30 min in plasma
  TMPRSS2 activity, Mean (0 nM = 100): 113.164
[1]; inhibitor 1.665 nM, 60 min in plasma
  TMPRSS2 activity, Mean (0 nM = 100): 99.5905
[1]; inhibitor 1.665 nM, 120 min in plasma
  TMPRSS2 activity, Mean (0 nM = 100): 86.7927
[1]; inhibitor 1.665 nM, 24 h in plasma
  TMPRSS2 activity, Mean (0 nM = 100): 94.0926
[1]; inhibitor 1.665 nM, 10 d in plasma
  TMPRSS2 activity, Mean (0 nM = 100): 97.9533
[1]; inhibitor 16.65 nM, 0 min in plasma
  TMPRSS2 activity, Mean (0 nM = 100): 102.887
[1]; inhibitor 16.65 nM, 30 min in plasma
  TMPRSS2 activity, Mean (0 nM = 100): 109.553
[1]; inhibitor 16.65 nM, 60 min in plasma
  TMPRSS2 activity, Mean (0 nM = 100): 96.8449
[1]; inhibitor 16.65 nM, 120 min in plasma
  TMPRSS2 activity, Mean (0 nM = 100): 89.3123
[1]; inhibitor 16.65 nM, 24 h in plasma
  TMPRSS2 activity, Mean (0 nM = 100): 95.2489
[1]; inhibitor 16.65 nM, 10 d in plasma
  TMPRSS2 activity, Mean (0 nM = 100): 97.0792
[1]; inhibitor 166.5 nM, 0 min in plasma
  TMPRSS2 activity, Mean (0 nM = 100): 65.7145
[1]; inhibitor 166.5 nM, 30 min in plasma
  TMPRSS2 activity, Mean (0 nM = 100): 82.4901
[1]; inhibitor 166.5 nM, 60 min in plasma
  TMPRSS2 activity, Mean (0 nM = 100): 70.0482
[1]; inhibitor 166.5 nM, 120 min in plasma
  TMPRSS2 activity, Mean (0 nM = 100): 62.4045
[1]; inhibitor 166.5 nM, 24 h in plasma
  TMPRSS2 activity, Mean (0 nM = 100): 65.047
[1]; inhibitor 166.5 nM, 10 d in plasma
  TMPRSS2 activity, Mean (0 nM = 100): 79.9649
[1]; inhibitor 1665 nM, 0 min in plasma
  TMPRSS2 activity, Mean (0 nM = 100): 16.8007
[1]; inhibitor 1665 nM, 30 min in plasma
  TMPRSS2 activity, Mean (0 nM = 100): 29.6147
[1]; inhibitor 1665 nM, 60 min in plasma
  TMPRSS2 activity, Mean (0 nM = 100): 24.841
[1]; inhibitor 1665 nM, 120 min in plasma
  TMPRSS2 activity, Mean (0 nM = 100): 22.2652
[1]; inhibitor 1665 nM, 24 h in plasma
  TMPRSS2 activity, Mean (0 nM = 100): 26.7809
[1]; inhibitor 1665 nM, 10 d in plasma
  TMPRSS2 activity, Mean (0 nM = 100): 39.3154
[2]; inhibitor 0.0167 nM, 0 min in cell culture medium
  Residual TMPRSS2 activity, Mean (0 nM = 100): 99.8464
[2]; inhibitor 0.0167 nM, 30 min in cell culture medium
  Residual TMPRSS2 activity, Mean (0 nM = 100): 97.1211
[2]; inhibitor 0.0167 nM, 60 min in cell culture medium
  Residual TMPRSS2 activity, Mean (0 nM = 100): 98.7825
[2]; inhibitor 0.0167 nM, 120 min in cell culture medium
  Residual TMPRSS2 activity, Mean (0 nM = 100): 93.642
[2]; inhibitor 0.0167 nM, 24 h in cell culture medium
  Residual TMPRSS2 activity, Mean (0 nM = 100): 94.4491
[2]; inhibitor 0.0167 nM, 10 d in cell culture medium
  Residual TMPRSS2 activity, Mean (0 nM = 100): 98.6379
[2]; inhibitor 0.0167 nM, positive ctrl
  Residual TMPRSS2 activity, Mean (0 nM = 100): 96.2013
[2]; inhibitor 0.167 nM, 0 min in cell culture medium
  Residual TMPRSS2 activity, Mean (0 nM = 100): 98.5685
[2]; inhibitor 0.167 nM, 30 min in cell culture medium
  Residual TMPRSS2 activity, Mean (0 nM = 100): 99.0315
[2]; inhibitor 0.167 nM, 60 min in cell culture medium
  Residual TMPRSS2 activity, Mean (0 nM = 100): 101.078
[2]; inhibitor 0.167 nM, 120 min in cell culture medium
  Residual TMPRSS2 activity, Mean (0 nM = 100): 96.3071
[2]; inhibitor 0.167 nM, 24 h in cell culture medium
  Residual TMPRSS2 activity, Mean (0 nM = 100): 95.5583
[2]; inhibitor 0.167 nM, 10 d in cell culture medium
  Residual TMPRSS2 activity, Mean (0 nM = 100): 98.6274
[2]; inhibitor 0.167 nM, positive ctrl
  Residual TMPRSS2 activity, Mean (0 nM = 100): 98.3227
[2]; inhibitor 1.665 nM, 0 min in cell culture medium
  Residual TMPRSS2 activity, Mean (0 nM = 100): 99.6928
[2]; inhibitor 1.665 nM, 30 min in cell culture medium
  Residual TMPRSS2 activity, Mean (0 nM = 100): 99.7944
[2]; inhibitor 1.665 nM, 60 min in cell culture medium
  Residual TMPRSS2 activity, Mean (0 nM = 100): 99.008
[2]; inhibitor 1.665 nM, 120 min in cell culture medium
  Residual TMPRSS2 activity, Mean (0 nM = 100): 92.9853
[2]; inhibitor 1.665 nM, 24 h in cell culture medium
  Residual TMPRSS2 activity, Mean (0 nM = 100): 97.5811
[2]; inhibitor 1.665 nM, 10 d in cell culture medium
  Residual TMPRSS2 activity, Mean (0 nM = 100): 97.9533
[2]; inhibitor 1.665 nM, positive ctrl
  Residual TMPRSS2 activity, Mean (0 nM = 100): 107.192

— paper PMC9270327 (Communications Biology, 2022)
